Values of other authors in US12115222B2, “Compositions and methods for improving the solubility of erectile dysfunction therapeutics” (Villya LLC, priority 2023, dated 2024).
Where a SMILES comes first, the peptide text is derived from it.

details: from the US FDA; cited from earlier work

SMILES	Times Sweeter than Sucrose
COC(=O)[C@H](Cc1ccccc1)NC(=O)[C@H](CC(=O)O)NCCCc1ccc(OC)c(O)c1 [Advantame ®, N—[N-[3-(3-hydroxy-4-methoxyphenyl)propyl]-α-aspartyl]-L-phenylalanine-1-methyl ester]	20,000
OC[C@H]1O[C@H](O[C@]2(CCl)O[C@H](CCl)[C@@H](O)[C@@H]2O)[C@H](O)[C@@H](O)[C@H]1Cl [sucralose, 1,6-dichloro-1,6-dideoxy-β-D-fructofuranosyl-4-chloro-4-deoxy-α-D-galactopyranoside]	600
COC(=O)[C@H](Cc1ccccc1)NC(=O)[C@@H](N)CC(=O)O [Aspartame, L-aspartyl-L-phenylalanine methyl ester] (H-Asp-Phe-OMe)	200
CC1=CC(=O)NS(=O)(=O)O1 [Acesulfame Potassium (Ace-K)]	200
COC(=O)[C@H](Cc1ccccc1)NC(=O)[C@H](CC(=O)O)NCCC(C)(C)C [Neotame ®]	7,000-13,000
